Data taken from ChEMBL document CHEMBL3988442, “University of Dundee, Small-Polar-MMV Screening Library” (2021).

Each number is a percent effect as filed. How 0% and 100% were set is not recorded. Most values in the screen are low, and negative values occur. Many other results are left out here, so strong results are more common than in the screen.

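Growth of Mycobacterium tuberculosis over 3 days (7H9 medium with glucose and tyloxapol); the read-out is not stated. Tested at 500 µM. Higher reads as more growth inhibition (inferred: compounds with an IC50 in retests scored well above the rest). Of about 18,000 compounds tested this way, about 1,400 (7.9%) reached 50% or more in at least one test.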

| Compound | effect |
|---|---|
| `CCN1CCN(Cc2ccc(OC)c(OC)c2)CC1` | -3.201 |
| `CC(C1CCN(C)CC1)N(C)C(=O)C1CCC1` (stereo not drawn) | -1.823 |
| `CCCC(C#N)NC(=O)c1ccn(-c2ccccc2)n1` (stereo not drawn) | 71.2 |
| `CC(O)CN1CCN(Cc2ccccc2C#N)CC1` (stereo not drawn) | 8.26 |
| `NCc1cc(C(F)(F)F)on1` | 6.089 |
| `NCc1cccc(C(N)=O)n1` | 7.574 |
| `CC(N)c1nnc(-c2ccccc2F)s1` (stereo not drawn) | 18.76 |
| `COCCN(C)CCNC(=O)c1ccc(F)c(F)c1` | 21.5 |
| `CCNC(=O)N1CCCN(Cc2ccsc2)CC1` | 21.75 |
| `c1coc(C2CNCCO2)c1` (stereo not drawn) | 3.146 |
| `CCn1nc(C(C)C)cc1C(=O)NC(C)COC` (stereo not drawn) | 21.1 |
| `CCCNC(=O)N1CCN(Cc2c(C)noc2C)CC1` | 0.3493 |
| `Cc1nc(O)c(C(=O)N2CCn3cnnc3C2)cc1Br` | -9.216 |
| `CCCc1nnc(NC(=O)c2cccnc2OCC)s1` | -8.35 |
| `CC(=O)Nc1cccn(CC(F)(F)F)c1=O` | -12.54 |
| `CCC(C(=O)N1CCC(N)CC1)c1ccccc1` (stereo not drawn) | 65.52 |
| `NCc1ccc(NC(=O)CCN2CCCC2)cc1` | 0.4663 |
| `Cc1nc(C)c(C(=O)NC(C)(C)C)s1` | 9.305 |
| `CNC(=O)NCCOc1ccc2c(c1)OCO2` | -4.564 |
| `Cc1cc(CC(=O)NCCSc2nnc(C)s2)on1` | 0.2079 |
| `O=C(NC1CC(=O)N(Cc2cccc(F)c2)C1)C1CC1` (stereo not drawn) | 17.37 |
| `Clc1cnn(C2CCNC2)c1` (stereo not drawn) | 23.24 |
| `CN(CC(N)=O)Cc1ccccc1N1CCCC1` | 55.75 |
| `CNC(=O)CN(C)Cc1nnsc1Cl` | 2.673 |
| `CN(C)S(=O)(=O)NCC(O)c1ccc(Cl)c(F)c1` (stereo not drawn) | 50.87 |
| `COCCNC(C)(C)CO` | 9.538 |
| `COCCNS(=O)(=O)c1ccc(C#N)cc1` | 2.864 |
| `CN(c1ccc(C(=O)N2CCCCC2)cc1)S(C)(=O)=O` | 5.592 |
| `COc1cc(NC(=O)N(C)CCN(C)C)ccc1F` | 18.74 |
| `Nc1ccnn1Cc1ccccn1` | 1.504 |
| `COCCNC1CC1` | -1.558 |
| `CCCNC(=O)C(C)N` (stereo not drawn) | 6.514 |
| `CN(Cc1nc2ccccc2[nH]1)C(=O)c1cnc[nH]1` | 14.4 |
| `CC(=O)N1CCC(C(=O)c2ccc(C)cc2)CC1` | 57.76 |
| `Cc1ccc(CCCC(=O)N(C)CC(N)=O)cc1` | 42.35 |
| `CC(C)NC(=O)CNCc1ccccc1OC(F)F` | 23.48 |
| `O=C(Cc1cccs1)NCC1CCCCC(=O)N1` (stereo not drawn) | 5.062 |
| `CC1CN(CCS(=O)(=O)c2ccccc2)CCO1` (stereo not drawn) | 19.19 |
| `CCN(CC)C(=O)NCC(O)c1ccsc1` (stereo not drawn) | 4.488 |
| `CC(C)(C)c1cnc(CN2CCOCC2C(N)=O)o1` (stereo not drawn) | 62.11 |
| `CC(=O)c1c[nH]c(C(=O)NC2(C)CCS(=O)(=O)C2)c1` (stereo not drawn) | -2.825 |
| `COCc1cccc(S(=O)(=O)N2CC[C@H](N)C2)c1` | 12.64 |
| `CNCc1ccc2nsnc2c1` | -0.5079 |
| `c1cncc(C2=NCCCC2)c1` | -205.4 |
| `NCCNCc1ccccn1` | 0.6646 |

The first 3 entries again:

Compound,effect
CCN1CCN(Cc2ccc(OC)c(OC)c2)CC1,-3.201
CC(C1CCN(C)CC1)N(C)C(=O)C1CCC1 (stereo not drawn),-1.823
CCCC(C#N)NC(=O)c1ccn(-c2ccccc2)n1 (stereo not drawn),71.2